Results taken from patent EP4341264B1, “PYRROLOPIRIMIDINE DERIVATIVES AND THEIR USE IN THE TREATMENT OF LEISHMANIASIS” (Drugs for Neglected Diseases Initiative, priority 2021, dated 2022).

Tests used:
[1] = test system: L. donovani (MHOM/ET/67/L82); assay: Intracellular amastigote susceptibility assay (primary peritoneal mouse macrophages); format: cell-based; conditions: selectivity index (CC50/IC50)
Procedure: (§1) To obtain primary peritoneal macrophages, Swiss mice were stimulated by intraperitoneal injection of 1 mL 2% starch in PBS 48 h prior to cell collection. Animals were euthanized with a CO2 overdose and upon removal of the skin, 10 mL of RPMI-1640 (Life Technologies) was injected into the peritoneal cavity to collect the macrophages that were then seeded into 96-well plates at a final concentration of 30,000 cells/well in 100 µL of RPMI-1640 macrophage medium, supplemented with 5% iFCS, 2% penicillin/streptomycin and 1% L-glutamine (Life technologies). After 24 h, the cells were infected with spleen derived L. infantum (MHOM/MA(BE)/67/ITMAP263) or L. donovani (MHOM/ET/67/L82) amastigotes obtained from heavily infected donor hamsters. The amastigotes were purified using two centrifugation steps and diluted to obtain an infection ratio of 5:1 in RPMI-1640 cell culture medium. After incubation for 2 h, compound dilutions were added. Drug activity was evaluated after a 96-h incubation period without washing of the cells and without renewal of the drugged culture medium. Cells were stained with Giemsa for microscopic evaluation of cellular amastigote burdens. Percentage reduction compared to the burdens in the infected non-treated control wells was used as a measure for drug activity.

[2] = test system: L. infantum (MHOM/MA/67/ITMAP263); assay: as above; format: cell-based; conditions: selectivity index (CC50/IC50)
Procedure: as §1

For `Cc1[nH]c2nc(N)nc(C)c2c1-c1ccc(F)c2c1OCO2` [Compound C2, 5-(7-fluoro-1,3-benzodioxol-4-yl)-4,6-dimethyl-7H-pyrrolo[2,3-d]pyrimidin-2-amine], the SI [1] was over 580 and the SI [2] was over 310.
